Amino acid sequences for entries named in this document (tags omitted). A change or cut given only in a name is not applied to a line headed by its entry.
UniProt P04296: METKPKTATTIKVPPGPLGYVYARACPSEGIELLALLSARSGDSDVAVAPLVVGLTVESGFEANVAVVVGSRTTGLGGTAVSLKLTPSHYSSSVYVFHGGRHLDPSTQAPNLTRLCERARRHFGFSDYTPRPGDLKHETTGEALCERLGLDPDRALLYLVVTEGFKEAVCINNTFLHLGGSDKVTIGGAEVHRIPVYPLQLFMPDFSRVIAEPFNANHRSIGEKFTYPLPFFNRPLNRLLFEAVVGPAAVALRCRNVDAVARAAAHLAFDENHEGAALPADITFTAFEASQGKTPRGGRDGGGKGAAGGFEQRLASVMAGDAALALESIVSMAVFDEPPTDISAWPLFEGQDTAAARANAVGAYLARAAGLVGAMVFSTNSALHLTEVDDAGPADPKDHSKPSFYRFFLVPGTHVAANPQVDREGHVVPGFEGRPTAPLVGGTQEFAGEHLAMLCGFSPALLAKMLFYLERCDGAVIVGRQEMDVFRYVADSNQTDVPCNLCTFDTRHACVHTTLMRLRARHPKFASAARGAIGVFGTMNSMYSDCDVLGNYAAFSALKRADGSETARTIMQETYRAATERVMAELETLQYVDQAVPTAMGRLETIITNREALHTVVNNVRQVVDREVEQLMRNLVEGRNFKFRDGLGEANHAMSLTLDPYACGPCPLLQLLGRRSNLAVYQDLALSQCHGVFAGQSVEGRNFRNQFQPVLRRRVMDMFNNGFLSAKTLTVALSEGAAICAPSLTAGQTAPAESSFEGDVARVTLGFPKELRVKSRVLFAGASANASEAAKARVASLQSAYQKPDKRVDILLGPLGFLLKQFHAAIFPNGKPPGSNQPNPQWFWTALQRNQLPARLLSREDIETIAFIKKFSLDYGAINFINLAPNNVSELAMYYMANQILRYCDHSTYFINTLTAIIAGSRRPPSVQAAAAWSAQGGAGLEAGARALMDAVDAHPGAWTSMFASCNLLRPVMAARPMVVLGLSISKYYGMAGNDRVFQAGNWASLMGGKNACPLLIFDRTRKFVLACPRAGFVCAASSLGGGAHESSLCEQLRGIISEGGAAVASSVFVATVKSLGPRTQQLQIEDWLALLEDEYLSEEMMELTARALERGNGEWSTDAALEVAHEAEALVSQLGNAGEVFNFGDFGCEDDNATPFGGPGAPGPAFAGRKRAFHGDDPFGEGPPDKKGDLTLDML

In article PMC8787488, “Two-Metal Ion-Dependent Enzymes as Potential Antiviral Targets in Human Herpesviruses” (mBio, 2022):

Target: ICP8 (Herpes simplex virus 1) (UniProt P04296)
Experiment: EMSA
Settings: DMSO control, 5 mM Mg2+; 20 mM Tris-HCl pH 7.5, 4% glycerol, 0.1 mg/mL BSA, 0.5 mM DTT, 5 mM MgCl2, […], binding 30 min at room temperature ([…]) or 37 C ([…]; recombinant protein; single-stranded DNA

TTTTTTTTTTTTTTTTTTTTTTTTT [Cy5-dT25]
binding result: binds

Construct, isoform or probe ends are uncertain for at least one entry. At least one verdict rests on a figure or table, not on a statement of the authors.
